Consider 1 substance from article PMC11254100 (Angewandte Chemie (International ed. in English), 2024).

This experiment addresses CAHEX:6HIS (Human immunodeficiency virus type 1 group M subtype B, UniProt P12493, A146C/E177C/M317A/W316A). Conditions: BLI, positive control.

For the substance Lenacapvir, binding was put at a Kd of 28.6 ± 0.2 nM.
